Publication PMC8322037 (International Journal of Biological Macromolecules, 2021)

Molecular target: SARS-CoV-2 3CL^pro (Severe acute respiratory syndrome coronavirus 2, UniProt P0DTD1)
Assay type: biochemical
Details: pH 7.4

Myricitrin
IC50 (read-out: IC50 0.5 (min)): 118 µM | IC50 (read-out: IC50 60 (min)): 14.2 µM

Like-named read-outs stand apart in the source and are kept apart here.
